What was measured:
[1] = tested on: PRD25N (HIV-1 protease D25N mutant); assay: DSC thermal denaturation of PRD25N with inhibitors; assay type: binding
[2] = tested on: PRD29N (HIV-1 protease D29N mutant); conditions: DSC

Question: With acetyl pepstatin [Ac-PEP] as the substance, how does the “ΔTm ratio ΔTm(PR)/ΔTm(PRD25N)” value [1] read?
Answer: 16.3

Question: What about the “ΔTm ratio ΔTm(PR)/ΔTm(PRD29N)” value [2] of the same substance?
Answer: ≥ 44

Reference: paper PMC2720045 (Proteins, 2009)
